Compound potency records, mixed from different reports. Data source: NIAID ChemDB in PubChem.

Shared fields: whole-cell or culture tests; organism: HIV-2; measure: EC50

ECn is the concentration giving n% inhibition of infection, replication or growth. Blank or dashed fields: not listed here. Neighbouring rows are from separate reports.

| compound | method | cell line | strain | result |
|---|---|---|---|---|
| CC(=O)c1ccc(C)cc1NC(C(N)=O)c1c(Cl)cccc1Cl | MTT | MT-4 | EHO | >137 µM |
| Cc1cn([C@H]2C=C[C@@H](COP3(=O)OCc4cccc(CCC(=O)O)c4O3)O2)c(=O)[nH]c1=O | syncytia | CEM + CEM TK- | LAV-2 | 20 µM |
| Cc1cn([C@@H]2O[C@H](CO[Si](C)(C)C(C)(C)C(C)C)C3(OS(=O)(=O)C=C3N)[C@H]2O[Si](C)(C)C(C)(C)C)c(=O)n(C)c1=O | syncytia | CEM | ROD | >60 µM |
| Cn1ncc2c1S(=O)(=O)N(CCc1ccccc1)C(=O)N2CCc1ccccc1Br | MTT | MT-4 | ROD | >271.1 µM |
| Cc1c(O)cccc1C(=O)N[C@@H](CSc1ccccc1)[C@H](O)CN1C[C@H]2CCCC[C@H]2C[C@H]1C(=O)NC(C)(C)C | cytopathic effect / MTT | MT-2 | EHO Laboratory isolate | 0.02 µM |
| Cn1ncc2c1S(=O)(=O)N(CCc1ccccc1)C(=O)N2CCC#N | MTT | MT-4 | ROD | >209.4 µM |
| Nc1nc(Nc2ccccc2)c2ncn(CCOCP(=O)(O)O)c2n1 | cytopathic effect / MTT | CEM | ROD | 35 µg/mL |
| Cc1cc(N[C@H](C)c2cccc3ccccc23)c(C(=O)C(Cl)Cl)c(=O)o1 | MTT | CEM | ROD | >10 µM |
| Cn1ncc2c1S(=O)(=O)N(CCc1ccc(C(C)(C)C)cc1)C(=O)N2CCc1ccc(C(C)(C)C)cc1 | MTT | MT-4 | ROD | >5.3 µM |
| CCC(C)Nc1nc(N)nc2c1[nH]c[n+]2C[C@@H](C)OCP(=O)(O)O | cytopathic effect / MTT | CEM | ROD | >100 µg/mL |
| Cc1cn([C@@H]2O[C@H](CO[Si](c3ccccc3)(c3ccccc3)C(C)(C)C)C3(OS(=O)(=O)C=C3N)[C@H]2O[Si](c2ccccc2)(c2ccccc2)C(C)(C)C)c(=O)[nH]c1=O | syncytia | CEM | ROD | >150 µM |
| Cn1ncc2c1S(=O)(=O)N(Cc1cccc(Cl)c1)C(=O)N2Cc1ccccc1 | cytopathic effect / MTT | MT-4 | ROD | >300.1 µM |
| CO[Si](OC[C@H]1O[C@@H](n2cc(C)c(=O)n(C)c2=O)[C@H](O[Si](C)(C)C(C)(C)C)C12OS(=O)(=O)C=C2N)(c1ccccc1)C(C)(C)C | syncytia | MT-4 | ROD | >6.6 µM |
| Cn1ncc2c1S(=O)(=O)N(Cc1cccc(Cl)c1)C(=O)N2 | cytopathic effect / MTT | MT-4 | ROD | >232.2 µM |
| O=C(O)C1=CC(=C(c2ccc(O)c(C(=O)O)c2)c2ccc(O)c(C(=O)O)c2)C=CC1=O | cytopathic effect | MT-4 | - | 23 µM |
| C[C@H](C[n+]1c[nH]c2c(Nc3ccoc3)nc(N)nc21)OCP(=O)(O)O | cytopathic effect / MTT | MT-4 | ROD | 7.74 ± 1.33 µg/mL |
| Cc1cn([C@H]2C=C[C@@H](CO)O2)c(=O)[nH]c1=O | syncytia | CEM + CEM TK- | LAV-2 | 15 µM |
| Nc1nc2c(ncn2CC(CF)OCP(=O)(O)O)c(=O)[nH]1 | cytopathic effect / trypan blue | MT-4 | LAV-2 | 10 µM |
| Cc1cn([C@H]2C[C@@H]3NC(NC#N)=NC[C@H]3O2)c(=O)[nH]c1=O | cytopathic effect / MTT | CEM | ROD | >100 µg/mL |
| Cc1cc(S(=O)(=O)Cc2cccc3ccccc23)cc(=O)o1 | MTT | CEM | ROD | >10 µM |
| Cn1ncc2c1S(=O)(=O)N(Cc1cccc(Cl)c1)C(=O)N2Cc1cccc(Cl)c1 | cytopathic effect / MTT | MT-4 | ROD | >277.2 µM |
| CC[C@@]1(O)C(=O)OCc2c1cc1n(c2=O)Cc2cc3cc(O)ccc3nc2-1 | syncytia | C8166 | CBL-20 | 0.0132 µg/mL |
| CC[C@H](C)[C@@H](C(=O)O)n1sc2ccccc2c1=O | p24 / RT activity | CEM | - | 5.8 µM |
| Nc1nc(N)c2ncn(CC(CF)OCP(=O)(O)O)c2n1 | cytopathic effect / trypan blue | MT-4 | LAV-2 | 13 µM |
| COC(=O)CCc1cccc2c1OP(=O)(OC[C@@H]1C=C[C@H](n3cc(C)c(=O)[nH]c3=O)O1)OC2 | syncytia | CEM + CEM TK- | LAV-2 | 0.4 µM |
| Cc1cn([C@@H]2O[C@H](COCc3ccccc3)C3(OS(=O)(=O)C=C3N)[C@H]2O[Si](C)(C)C(C)(C)C)c(=O)[nH]c1=O | syncytia | MT-4 | ROD | >6 µM |
| Cc1cn([C@H]2C[C@H](N=[N+]=[N-])[C@@H](CO)O2)c(=O)[nH]c1=O | cytopathic effect / XTT | CEM | ST | 0.023 µg/mL |
| CC(C)CN(C[C@@H](O)[C@H](Cc1ccccc1)NC(=O)O[C@H]1CCOC1)S(=O)(=O)c1ccc(N)cc1 | MTT | MT-2 | ROD | 0.44 µM |
| Cn1ncc2c1S(=O)(=O)N(CCc1ccccc1)C(=O)N2CCc1ccccc1C#N | MTT | MT-4 | ROD | >198 µM |
| Cn1ncc2c1S(=O)(=O)N(Cc1cccc(Cl)c1)C(=O)N2Cc1ccccc1Cl | cytopathic effect / MTT | MT-4 | ROD | >277.2 µM |
| Cc1cn([C@H]2C[C@H](N=[N+]=[N-])[C@@H](CO)O2)c(=O)[nH]c1=O | cytopathic effect / XTT | CEM + CEM-SS | NIH-A7 | 0.014 µM |
| CCNc1nc(N(C)C)nc2c1[nH]c[n+]2C[C@@H](C)OCP(=O)(O)O | cytopathic effect / MTT | CEM | ROD | 3.3 ± 1.1 µg/mL |
| Nc1nc2c(ncn2CCOCP(=O)(O)O)c(=O)[nH]1 | MTT | C8166 | CBL-20 | 1.1 µM |
| Cc1cc(C(O)(c2cc(C)c(O)c(C(=O)O)c2)c2cc(C)c(O)c(C(=O)O)c2)cc(C(=O)O)c1O | cytopathic effect | MT-4 | - | >200 µM |
| Cc1ccnc2c1NC(=O)c1cccnc1N2C1CC1 | MTT | MT-4 | ROD | >2 µg/mL |
| C[C@H](Cn1cnc2c(=O)[nH]c(N)nc21)OCP(=O)(O)O | MTT | C8166 | CBL-20 | 5 µM |
| Cc1cc(SCc2cccc3ccccc23)cc(=O)o1 | MTT | CEM | ROD | >10 µM |
| Cc1cn([C@@H]2O[C@H](COCc3ccccc3)C3(OS(=O)(=O)C(Cc4ccccc4)=C3NCc3ccccc3)[C@H]2O[Si](C)(C)C(C)(C)C)c(=O)n(C)c1=O | syncytia | CEM | ROD | >130 µM |
| Nc1nc(N)c2ncn(CCOCP(=O)(O)O)c2n1 | cytopathic effect / trypan blue | MT-4 | LAV-2 | 1.2 µM |
| Cc1cn([C@@H]2O[C@H](CO[Si](C)(C)C(C)(C)C)C3(OS(=O)(=O)C=C3N)[C@H]2O)c(=O)[nH]c1=O | syncytia | MT-4 | ROD | >40 µM |
| CCCN(C)c1nc(N)nc2c1[nH]c[n+]2C[C@@H](C)OCP(=O)(O)O | cytopathic effect / MTT | CEM | ROD | 5.5 ± 2.1 µg/mL |
| Cc1cn([C@H]2C[C@H](N=[N+]=[N-])[C@@H](CO)O2)c(=O)[nH]c1=O | cytopathic effect / MTT | MT-2 | EHO Laboratory isolate | 0.003 µM |
| Cc1cn([C@H]2C[C@H](Nc3n[nH]c(N)n3)[C@@H](CO)O2)c(=O)[nH]c1=O | cytopathic effect / MTT | CEM | ROD | >100 µg/mL |
| O=c1[nH]cnc2c1ncn2[C@H]1CC[C@@H](CO)O1 | ELISA | PBMC | 1010 | 5.24 µM |
| CC(C)c1nc(CN(C)C(=O)N[C@H](C(=O)N[C@@H](Cc2ccccc2)C[C@H](O)[C@H](Cc2ccccc2)NC(=O)OCc2cncs2)C(C)C)cs1 | cytopathic effect / MTT | MT-2 | EHO Laboratory isolate | 0.35 µM |

Again, the opening 5 rows:

compound	method	cell line	strain	result
CC(=O)c1ccc(C)cc1NC(C(N)=O)c1c(Cl)cccc1Cl	MTT	MT-4	EHO	>137 µM
Cc1cn([C@H]2C=C[C@@H](COP3(=O)OCc4cccc(CCC(=O)O)c4O3)O2)c(=O)[nH]c1=O	syncytia	CEM + CEM TK-	LAV-2	20 µM
Cc1cn([C@@H]2O[C@H](CO[Si](C)(C)C(C)(C)C(C)C)C3(OS(=O)(=O)C=C3N)[C@H]2O[Si](C)(C)C(C)(C)C)c(=O)n(C)c1=O	syncytia	CEM	ROD	>60 µM
Cn1ncc2c1S(=O)(=O)N(CCc1ccccc1)C(=O)N2CCc1ccccc1Br	MTT	MT-4	ROD	>271.1 µM
Cc1c(O)cccc1C(=O)N[C@@H](CSc1ccccc1)[C@H](O)CN1C[C@H]2CCCC[C@H]2C[C@H]1C(=O)NC(C)(C)C	cytopathic effect / MTT	MT-2	EHO Laboratory isolate	0.02 µM